PMC9598941

What was measured:
[1] = biological target: T1, CcpA (catabolite control protein A) (UniProt P99175); experiment: EMSA; conditions: CcpA 0-600 pM, probe 20 fM (so in the source); recombinant protein; protein details: His-tag (pET28a, pETccpA); probe letters rebuilt from the primers and the genome
T1 sequence (looked up, limits assumed): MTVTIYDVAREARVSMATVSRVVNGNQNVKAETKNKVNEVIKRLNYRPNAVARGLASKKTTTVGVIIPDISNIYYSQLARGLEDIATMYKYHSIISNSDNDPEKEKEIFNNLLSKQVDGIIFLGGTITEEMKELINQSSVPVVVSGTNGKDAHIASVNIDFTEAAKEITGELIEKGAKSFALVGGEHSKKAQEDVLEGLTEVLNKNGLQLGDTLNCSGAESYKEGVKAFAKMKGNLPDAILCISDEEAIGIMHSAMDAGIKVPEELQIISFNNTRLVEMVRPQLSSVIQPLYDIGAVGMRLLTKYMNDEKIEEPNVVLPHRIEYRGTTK

[2] = biological target: T1, CcpA (catabolite control protein A); experiment: competition with a labelled probe; conditions: unlabeled Psak1, 200-fold excess (4 pM), blocks complex with biotin-Psak1; recombinant protein; protein details: His-tag (pET28a, pETccpA); probe letters rebuilt from the primers and the genome

GGCGCTTCCTCCAAATATAATATATTTGTTTTTATTTATCTCTTTTTATAGCTAACACCCTTATTTAAGATGATAAATATCAACAACTTCATTTTATATTGAGAAAATATTAAAAATCAATAAAATATTAAAAGAAACTAAACTTACATTAAAAAATAATTAACAAATATTTAACATTTTAACCTAAGAATTAAAACACTTCTTTCACAATCAATCTCTCATGCCATATCCACTCATTATGATTGTTCCAATAAATGCGACACCAACCATCTATAATTTCAAACACATATATTAATGTTCCAGGCGCGTATACAGCCTGTCCAACATCGAATCTATAGTTAGTACGATTATCACCGTATCTAGTGGCTGAAGTAGCACCTAAGCCGTCGATTTTCGCATTAAAATAAGCACCTTTTGACCATTTAAGGTTATAAGGCGCTTTACTTCCAACTGTTATTTTACTTGCA (double strand) [Psak1]
binding result [1]: binds | binding result [2]: binds

The exact form of at least one protein or probe is not confirmed. Tags and fusion partners may be left off the protein sequences shown.
